Pooled drug test results. Numbers come from NIAID ChemDB, via PubChem.

All rows: whole-cell or culture tests; species: Hepatitis C virus; read-out: EC50

Two numbers with a dash give a range or band. Lines come from different laboratories, so protocols vary. Blank or dashed fields: not listed here. ECn is the concentration giving n% inhibition of infection, replication or growth.

smiles,cell line,strain or isolate,read by,value
COc1nc(O[C@@H]2C[C@H]3C(=O)N[C@]4(C(=O)NS(=O)(=O)C5(C)CC5)C[C@H]4/C=C\CCCCN(C)C(=O)[C@@H]3C2)cc(-c2ccccc2)n1,,1b,luciferase / reporter gene / replicon,0.2–0.99 µM
CC(C)[C@H](NP(=O)(OC[C@H]1O[C@@H](c2cnc3c(=O)[nH]c(N)nn23)[C@](C)(O)[C@@H]1O)Oc1cccc2ccccc12)C(=O)OCc1ccccc1,Huh7,,luciferase / reporter gene,>50 µM
CC1(C)CC(=O)C2=C(C1)Nc1c(O)cccc1N(C(=O)CC(=O)O)C2c1ccc(Oc2ccccc2Br)cc1Cl,,1b,luciferase / reporter gene / replicon,>100 µM
COc1cc(O[C@@H]2C[C@H]3C(=O)N[C@]4(C(=O)NS(=O)(=O)c5cccs5)C[C@H]4/C=C\CCCCN(C)C(=O)[C@@H]3C2)nc(-c2ccccc2)n1,,1b,luciferase / reporter gene / replicon,1–10 µM
CC1(C)CC(=O)C2=C(C1)Nc1c(O)cccc1N(C(=O)CCC(=O)NCc1cccs1)C2c1ccc(OCc2ccccc2)cc1Cl,,1b,luciferase / reporter gene / replicon,10.33 µM
COc1nc(O[C@@H]2C[C@H]3C(=O)N[C@]4(C(=O)NS(=O)(=O)C5CC5)C[C@H]4/C=C\CCCCCNC(=O)N3C2)cc(-c2ccccc2)n1,,1b,luciferase / reporter gene / replicon,1–10 µM
C[C@@]1(O)[C@H](O)[C@@H](CO)O[C@H]1c1ccc2c(N)ncnn12,Huh7,,luciferase / reporter gene,1.6 µM
CCN(CC)CCNC(=S)Nc1ccc2c(c1)Cc1cc(Br)ccc1-2,Ava5-EG(delta4AB)SEAP,,reporter gene / fluorescence,0.001–1 µM
CC(=O)N1c2cccc(O)c2NC2=C(C(=O)CC(C)(C)C2)C1c1ccc(S(C)(=O)=O)cc1,,1b,luciferase / reporter gene / replicon,>100 µM
S=C(Nc1cccc(OCCCCCOc2ccc(-c3ccccc3)cc2)c1)N1CCCCC1,Ava5-EG(delta4AB)SEAP,,reporter gene / fluorescence,0.001–1 µM
CC1(C)CC(=O)C2=C(C1)Nc1c(O)cccc1N(C(=O)CC#N)[C@H]2c1ccc(OCc2ccccc2)cc1Cl,,1b,luciferase / reporter gene / replicon,0.75 µM
CN1CCCC/C=C\[C@@H]2C[C@@]2(C(=O)NS(=O)(=O)C2CC2)NC(=O)[C@@H]2C[C@@H](Oc3ccnc(N4CCOCC4)n3)C[C@H]2C1=O,,1b,luciferase / reporter gene / replicon,>10 µM
Cc1cc(Br)ccc1C(=O)N(c1cc(-c2ccc(-c3cc4ncccn4n3)cc2)sc1C(=O)O)C(C)C,,1a,luciferase / replicon,0.1–0.5 µM
COc1nc(O[C@@H]2C[C@H]3C(=O)N[C@]4(C(=O)NS(=O)(=O)C5(C)CC5)C[C@H]4/C=C\CCCCCNC(=O)N3C2)cc(-c2ccccc2)n1,,1b,luciferase / reporter gene / replicon,0.2–0.99 µM
CCOC(=O)C1(NP(=O)(OC[C@H]2O[C@@H](c3cnc4c(=O)[nH]c(N)nn34)[C@](C)(O)[C@@H]2O)Oc2cccc3ccccc23)CCC1,Huh7,,luciferase / reporter gene,>50 µM
NC(=S)Nc1ccc2c(c1)Cc1ccccc1-2,Ava5-EG(delta4AB)SEAP,,reporter gene / fluorescence,0.001–1 µM
CONC(=O)c1cccc[n+]1[O-],Huh-luc/neo 7,,luciferase / absorbance,6 µM
CC1(C)CC(=O)C2=C(C1)Nc1c(O)cccc1N(C(=O)COc1ccc(Cl)cc1)C2c1ccc(OCc2ccccc2)cc1F,,1b,luciferase / reporter gene / replicon,1.72 µM
NC(=S)Nc1cccc(OCCCCCOc2ccc3ncccc3c2)c1,Ava5-EG(delta4AB)SEAP,,reporter gene / fluorescence,0.001–1 µM
COc1nc(O[C@@H]2C[C@H]3C(=O)N[C@]4(C(=O)NS(=O)(=O)C5(C)CC5)C[C@H]4/C=C\CCCCN(C)C(=O)[C@@H]3C2)cc(C(C)(C)C)n1,,1b,luciferase / reporter gene / replicon,>10 µM
CCCCCOC(=O)Nc1ncnn2c([C@@H]3O[C@H](CO)[C@@H](O)[C@@]3(C)O)ccc12,Huh7,,luciferase / reporter gene,>100 µM
CC1(C)CC(=O)C2=C(C1)Nc1c(O)cccc1NC2c1cccc(Cl)c1,,1b,luciferase / reporter gene / replicon,59.13 µM
CCOc1nc(N)nc2c1ncn2[C@@H]1O[C@@H]2COP(=O)(OC(C)C)O[C@H]2[C@@]1(C)F,Lunet,2a,PCR,0.14 µM
Cc1cc(Br)ccc1C(=O)N(c1cc(-c2ccc(-c3cn4ccccc4n3)cc2)sc1C(=O)O)C(C)C,,1b,replicon / ELISA,0.1–0.5 µM
COc1cc(O[C@@H]2C[C@H]3C(=O)N[C@]4(C(=O)NS(=O)(=O)C5(C)CC5)C[C@H]4/C=C\CCCCN(C)C(=O)[C@@H]3C2)nc(-c2ccccc2)n1,,1b,luciferase / reporter gene / replicon,0.0005–0.199 µM
CC(C)C(=O)O[C@@H]1[C@@H](CO)O[C@@H](c2ccc3c(N)ncnn23)[C@]1(C)O,Huh7,,luciferase / reporter gene,2 µM
O=C(O)c1sc(-c2ccc(-c3cc4ncccn4n3)cc2)cc1N(C(=O)c1ccc(Cl)cc1Cl)C1CCOC1,,1b,luciferase / replicon,0.005–0.01 µM
COc1cc(O[C@@H]2C[C@H]3C(=O)N[C@]4(C(=O)NS(=O)(=O)C5CC5)C[C@H]4/C=C\CCCCCNC(=O)N3C2)nc(-c2ccccc2)n1,,1b,luciferase / reporter gene / replicon,0.0005–0.199 µM
Cc1ccc(C(=O)N(c2cc(-c3ccc(-c4cc5ncccn5n4)cc3)sc2C(=O)O)C(C)C)c(C)c1,,1a,replicon / ELISA,0.1–0.5 µM
CC1(C)CC[C@@]2(C(=O)NCc3cn(CCCn4cc(CNC(=O)[C@]56CCC(C)(C)CC5C5=CCC7[C@@]8(C)CC[C@H](O)C(C)(C)C8CC[C@@]7(C)[C@]5(C)C[C@H]6O)nn4)nn3)C(C1)C1=CCC3[C@@]4(C)CC[C@H](O)C(C)(C)C4CC[C@@]3(C)[C@]1(C)C[C@H]2O,Huh7,,luciferase / entry,0.01 µM
CC(C)N(C(=O)c1ccc(Cl)cc1Cl)c1cc(-c2ccc(-c3cn4ccsc4n3)cc2)sc1C(=O)O,,1b,replicon / ELISA,0.1–0.5 µM
CC1(C)CC(=O)C2=C(C1)Nc1c(O)cccc1N(C(=O)CCC(=O)N1CCN(Cc3ccccc3)CC1)C2c1ccc(OCc2ccccc2)cc1Cl,,1b,luciferase / reporter gene / replicon,2.16 µM
CCCCn1c(=O)c2cc(OC)ccc2c2cc(C(O)(C(F)(F)F)C(F)(F)F)c(OC)cc21,Huh7.5.1,2a,PCR,2.6 µM
NC(=S)Nc1ccc(OCCCCCOc2ccccc2)cc1,Ava5-EG(delta4AB)SEAP,,reporter gene / fluorescence,0.001–1 µM